# In patent US20230013669A1, “Antibacterial Treatment Using a Cannabinoid and an Active Agent” (priority 2019, published 2023):
# Tests used:
# Test in all cases: Synergy of cannabidiol with cell-wall disrupting agent (CBD MIC in combination, FICI)
# Assay type in all cases: cell-based
# [1] = system: Acinetobacter baumannii 03.021.1 (GN_038), Colistin resistant
# Description: (§1) The compounds were stored short term at 4° C.
# (§2) Analysis was performed using Microsoft Excel.
# [2] = system: Acinetobacter baumannii 03.021.1 (GN_039), Colistin resistant
# Description: as §1, §2
# [3] = system: Pseudomonas aeruginosa FADDI-PA067 (GN_177), Polymyxin resistant; details: Example 8, CBD + MCC_00636, calculated with CBD MIC 256 μg/mL
# Description: as §1, §2
# [4] = Example 8, CBD + MCC_00636, calculated with CBD MIC 256 μg/mL
# [5] = Example 9, CBD + MCC_09222, calculated with CBD MIC 256 μg/mL, listed as CBD
compound,measurement,setting,value
"C=C(C)C1CCC(C)=CC1c1c(O)cc(CCCCC)cc1O (centres unmarked) [Cannabidiol, 2-[3-methyl-6-(1-methylethenyl)-2-cyclohexen-1-yl]-5-pentyl-1,3-benzenediol]",FICI range,[1]; [4],0.25-1.06
same,FICI range,[1]; [5],0.07-1.03
same,FICI range,[2]; [4],0.14-1.06
same,FICI range,[2]; [5],0.07-1.03 and 0.08-1.03
same,FICI range,[3],0.27-2

# Values joined by “and” are separate entries in the source; they are usually repeats but may differ in a detail not shown here. Equal entries are not always repeated.
